This assay deals with AnkXG108C:PC:Rab1b:GDP complex (Homo sapiens, UniProt Q9H0U4). Kind of assay: X-ray crystal structure, […] A. The following applies: GDP in the Rab1b nucleotide site; Rab1b covalently linked to AnkX.

Chains of the proteins cited; added tags and fusions are not shown. Lines headed by an entry give the natural chain unless they say otherwise; changes in a name come on top.
UniProt Q9H0U4: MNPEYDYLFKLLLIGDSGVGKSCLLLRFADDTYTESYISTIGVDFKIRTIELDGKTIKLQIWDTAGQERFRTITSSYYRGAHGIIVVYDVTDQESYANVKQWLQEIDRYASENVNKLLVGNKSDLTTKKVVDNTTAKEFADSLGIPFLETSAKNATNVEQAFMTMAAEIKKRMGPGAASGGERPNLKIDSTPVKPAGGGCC

Consider `Nc1nc2c(ncn2[C@@H]2O[C@H](COP(=O)(O)OP(=O)(O)O)[C@@H](O)[C@H]2O)c(=O)[nH]1`, for which the “X-ray crystal structure, 3.2 A” value is reported as “x-ray crystal structure of the covalent ternary AnkXG108C:PC:Rab1b:GDP complex”.
